Measured values from several laboratories, pooled; numbers as filed in NIAID ChemDB.

Common to all: cytotoxicity tests; endpoint: CC50

An empty or dashed field is not shown. CCn: concentration that lowers growth or viability of the cells by n%. Lines come from different laboratories, so protocols vary.

compound	method	cell line	result
C#C[C@@H]1C[C@@H](O)[C@H]2CCCCN12	MTT	Human foreskin fibroblasts (HFF)	84 µM
CC1(C)C2CC[C@]3(C)C(CC=C4C5C[C@@](C)(C(=O)O)CC[C@]5(C)CC[C@]43C)[C@@]2(C)CC[C@@H]1O[C@@H]1O[C@H](C(=O)O)[C@@H](O)[C@H](O)[C@H]1O[C@@H]1OC(C(=O)O)[C@@H](O)[C@H](O)[C@H]1O	ATP	MDCK	>100 µM
c1cnc2c(c1)ccc1cccnc12	absorbance	J774A.1	≤50 µM
CN(C)c1ccccc1C(=O)NC1N=C(c2ccccc2)c2ccccc2NC1=O		HEP-2	1.5 µM
[C-]#[N+][C@@]1(C)C2CC[C@H]3[C@H]4[C@H](CC[C@]3(C)[N+]#[C-])[C@@H](C)C[C@@H](CC1(C)C)[C@H]24		KB	4.7 µg/mL
CN(C(=O)Nc1ccccc1F)C1N=C(c2ccccc2)c2ccccc2NC1=O		HEP-2	9.5 µM
C=C(C)[C@@H]1CC[C@]2(COC(C)=O)CC[C@]3(C)[C@H](CC[C@@H]4[C@@]5(C)CC[C@H](OC(C)=O)C(C)(C)[C@@H]5CC[C@]43C)[C@@H]12		KB	>20 µg/mL
Nc1ccn([C@@H]2CS[C@H](CO)O2)c(=O)n1		HSF	400 µM
CC(C)OC(=O)[C@H](C)N[P@](=O)(OC[C@H]1O[C@@H](n2ccc(=O)[nH]c2=O)[C@](C)(F)[C@@H]1O)Oc1ccccc1		RFP-NLS-IPS	>10 µM
O=C1C=C2C=C[C@@H]3C[C@@]2(O1)[C@H]1CCCCN31	MTT	Human foreskin fibroblasts (HFF)	81 µM
COc1cc(SC)ccc1C(=O)NC1N=C(c2ccccc2)c2ccccc2NC1=O		HEP-2	6.3 µM
Cc1cn([C@H]2C[C@H](N=[N+]=[N-])[C@@H](COP(=O)(OCc3ccc(C(=O)OC(C)C)cc3)OCc3ccc(C(=O)OC(C)C)cc3)O2)c(=O)[nH]c1=O	MTT	JM	300 µM
COC(=O)[C@H](Cc1c[nH]c2ccccc12)NP(=O)(OC[C@H]1O[C@@H](N2C(=O)NC(=O)C(C)(Br)C2OC)C[C@@H]1N=[N+]=[N-])Oc1ccccc1		HUMAN SPERM	10 µM
COc1cc(S(C)(=O)=O)ccc1C(=O)N[C@H]1N=C(c2ccccc2)c2ccccc2NC1=O		HEP-2	0.6 µM
CCOC(=O)c1ccc(COP(=O)(OCc2ccc(C(=O)OCC)cc2)OC[C@H]2O[C@@H](n3cc(C)c(=O)[nH]c3=O)C[C@@H]2N=[N+]=[N-])cc1	MTT	JM	200 µM
C[C@@]1(O)[C@H](O)[C@@H](CO)O[C@H]1n1ccc(N)nc1=O		HuH6	>30 µM
Cc1cn([C@H]2C[C@H](N=[N+]=[N-])[C@@H](CO)O2)c(=O)[nH]c1=O		CBMC	74 µM
COC(=O)[C@H](C)NP(=O)(OC[C@H]1O[C@@H](N2C(=O)NC(=O)C(C)(Br)C2OC)C[C@@H]1N=[N+]=[N-])Oc1ccccc1		HUMAN SPERM	>35 µM
Cc1nc2cccnc2n1C1C[C@H]2CC[C@H](C1)N2CC[C@H](C(=O)NCc1ccc(F)cc1)c1ccccc1		CHO	0.0144 µM
CC(=O)O[C@@H]1O[C@H](COC(=O)[C@H](CC(C)C)NC(=O)[C@H](Cc2ccccc2)NC(=O)CNC(=O)CNC(=O)[C@@H](N)Cc2ccc(O)cc2)[C@@H](OC(C)=O)[C@H](OC(C)=O)[C@H]1OC(C)=O		PBL	>140 µM
NC(=O)c1sc2nccc(Nc3ccccc3)c2c1N	MTT	U1	53 µM
CC(C)C[C@H](NC(=O)[C@H](Cc1ccccc1)NC(=O)CNC(=O)CNC(=O)[C@@H](N)Cc1ccc(O[C@@H]2O[C@H](CO)[C@@H](O)[C@H](O)[C@H]2O)cc1)C(=O)O		PBL	>140 µM
CCc1nc(N)nc(N)c1-c1ccc(Cl)cc1	MTT	Human foreskin fibroblasts (HFF)	44 µM
CC1=C2CC[C@]3(C)O[C@H]3CC/C(C)=C/CC/C(C)=C/[C@H]2OC1		KB	>20 µg/mL
COCO[C@@H]1C[C@@H](/C=C/I)N2CCCC[C@@H]12	MTT	Human foreskin fibroblasts (HFF)	49 µM
Nc1ncnc2c1ncn2[C@H]1C=C[C@H](O)[C@@H]1O		CV-1	100 µg/mL
Nc1nc2c(ncn2[C@H]2CO[C@@H](CO)O2)c(=O)[nH]1		HT-1080	>500 µM
Cc1cn([C@H]2C[C@H](N=[N+]=[N-])[C@@H](CO)O2)c(=O)[nH]c1=O	trypan blue	MOLT-4	>100 µM
COC(=O)[C@@H]1C[C@@H](O[Si](C)(C)C(C)(C)C)[C@H]2CCCCN21	MTT	Human foreskin fibroblasts (HFF)	80 µM
NC(=O)c1ncn([C@@H]2O[C@H](CO)[C@@H](O)[C@H]2O)n1		CV-1	33 µg/mL
Nc1nc(N)c2ncn([C@H]3CO[C@@H](CO)O3)c2n1		HSF	>500 µM
CC(C)C[C@H](NC(=O)[C@H](Cc1ccccc1)NC(=O)CNC(=O)CNC(=O)[C@@H](N)Cc1ccc(O)cc1)C(=O)OC[C@@H](O)[C@@H](O)[C@H](O)[C@@H](O)C=O		PBL	>140 µM
COC(=O)[C@@H](NP(=O)(OC[C@H]1O[C@@H](N2C(=O)NC(=O)C(C)(Br)C2OC)C[C@@H]1N=[N+]=[N-])Oc1ccccc1)C(C)C		HUMAN SPERM	300 µM
CCCCCCCCCCCCSCC(COP(=O)([O-])OCC[N+](C)(C)C)OCCCCCCCCO	trypan blue	MOLT-4	>100 µM
CC1(C)C2CC[C@]3(C)C(C(=O)C=C4C5C[C@@](C)(C(=O)O)CC[C@]5(C)CC[C@]43C)[C@@]2(C)CC[C@@H]1O	ATP	MDCK	>100 µM
Nc1ccc(-c2nc3cc(Cl)ccc3c(=O)[nH]2)cc1	MTT	OM-10.1	344.9 µM
COc1cccc(C2(c3ccccc3)NC(NC(=O)c3ccc([N+](=O)[O-])cc3)C(=O)Nc3ccccc32)c1		HEP-2	5 µM
COC(=O)c1ccc(COP(=O)(O)OC[C@H]2O[C@@H](n3cc(C)c(=O)[nH]c3=O)C[C@@H]2N=[N+]=[N-])cc1	MTT	JM	100 µM
O=C(O[C@@H]1Cc2c(O)cc(O)cc2O[C@@H]1c1cc(O)c(O)c(O)c1)c1cc(O)c(O)c(O)c1		Huh-7/3-1	41.68 µg/mL
COC(=O)c1ccc(COP(=O)(OCc2ccc(C(=O)OC)cc2)OC[C@H]2O[C@@H](n3cc(C)c(=O)[nH]c3=O)C[C@@H]2N=[N+]=[N-])cc1	MTT	JM	150 µM
COC(=O)[C@@H]1CCCN1P(=O)(OC[C@H]1O[C@@H](N2C(=O)NC(=O)C(C)(Br)C2OC)C[C@@H]1N=[N+]=[N-])Oc1ccccc1		HUMAN SPERM	>61 µM
CCCCCCCCCCCCSCC(COP(=O)([O-])OCC[N+](C)(C)C)OCCCCCCCCC(=O)OCC(=O)OC[C@H]1O[C@@H](n2cc(C)c(=O)[nH]c2=O)C[C@@H]1N=[N+]=[N-]	neutral red	MRC-9	>100 µM
CN(CCO)c1ccc(-c2nc3ccccc3c(=O)[nH]2)cc1	MTT	OM-10.1	154.4 µM
COC(=O)[C@H](Cc1c[nH]c2ccccc12)NP(=O)(OC[C@H]1O[C@@H](N2C(=O)NC(=O)C(C)(Br)C2OC)C[C@@H]1N=[N+]=[N-])Oc1ccc(Br)cc1		HUMAN SPERM	20 µM

Again, the opening 2 rows:

{"compound": "C#C[C@@H]1C[C@@H](O)[C@H]2CCCCN12", "method": "MTT", "cell line": "Human foreskin fibroblasts (HFF)", "result": "84 µM"}
{"compound": "CC1(C)C2CC[C@]3(C)C(CC=C4C5C[C@@](C)(C(=O)O)CC[C@]5(C)CC[C@]43C)[C@@]2(C)CC[C@@H]1O[C@@H]1O[C@H](C(=O)O)[C@@H](O)[C@H](O)[C@H]1O[C@@H]1OC(C(=O)O)[C@@H](O)[C@H](O)[C@H]1O", "method": "ATP", "cell line": "MDCK", "result": ">100 µM"}